Usually Kd stands for a measure of binding affinity in units of concentration. A higher Kd goes with weaker binding.

The assay deals with T1, Bim-BH3 motif fused to the C-terminus of maltose-binding protein (MBP) (human).
T1 construct: domain: Bim-BH3 motif; also called MBP-Bim-BH3
The assay is described as follows: BLI, biotinylated target on streptavidin sensor, MBP-Bim-BH3 in solution. (In general: In BLI a coated tip is dipped into the sample, and binding shifts an interference pattern.)

B1: human Bcl-2 a.a. 1-207 with C-terminal avi-6his tag (other)
chain: AHAGRTGYDNREIVMKYIHYKLSQRGYEWDAGDVGAAPPGAAPAPGIFSSQPGHTPHPAASRDPVARTSPLQTPAAPGAAAGPALSPVPPVVHLTLRQAGDDFSRRYRRDFAEMSSQLHLTPFTARGRFATVVEELFRDGVNWGRIVAFFEFGGVMCVESVNREMSPLVDNIALWMTEYLNRHLHTWIQDNGGWDAFVELYGPSMRGLNDIFEAQKIEWHEGSHHHHHH
On to B1, for which the Kd was found to be 0.75 nM.

The values are drawn from patent publication US20160376333A1 (University of Washington, published 2016).
